A mixed list of measured activities; the numbers were collected in NIAID ChemDB.

All rows: whole-cell or culture tests

Lines come from different laboratories, so protocols vary. Blank or dashed fields: not listed here. ECn: concentration that inhibits the pathogen or its effect by n%. Zones are inhibition diameters on agar. MIC50, MIC90 and the like: level of inhibition, or share of isolates inhibited. Percent inhibition refers to the dose given; in toxicity tests it is the harm to the cells.

compound | strain or isolate | measure | organism | tested at | method | value
CC[C@@H]([C@H](C)O)n1ncn(-c2ccc(N3CCN(c4ccc(OC[C@@H]5CO[C@@](Cn6cncn6)(c6ccc(F)cc6F)C5)cc4)CC3)cc2)c1=O | Clinical isolates | MIC | Candida guilliermondii |  | broth dilution | 0.25 µg/mL
C[C@@H]1C=C2C3CCC4[C@@]5(C)CC[C@@H](O)C(C)(C)C5CC[C@@]4(C)[C@]3(C)CC[C@@]2(C(=O)O)CC1 | ATCC 750 | MLC | Candida tropicalis |  | broth dilution | >200 µg/mL
CO[C@H]1C[C@H](O[C@H]2CC[C@@]3(C)C(=CC[C@H]4C5=CC(=O)[C@@H]6[C@@H](C)OC(=O)[C@]56CC[C@@H]43)C2)O[C@H](C)[C@H]1O[C@H]1C[C@H](OC)[C@H](O[C@@H]2C[C@@H](OC)[C@@H](O[C@@H]3O[C@H](CO[C@@H]4O[C@H](CO)[C@@H](O)[C@H](O)[C@H]4O)[C@@H](O)[C@H](O)[C@H]3O)[C@H](C)O2)[C@@H](C)O1 |  | EC50 | Candida guilliermondii |  | broth dilution / turbidity | >100 µg/mL
O=C1C(c2ccc(Oc3ccccc3)cc2)=[N+]([O-])c2ccccc21 |  | MFC | Candida colliculosa |  |  | >125 µg/mL
Clc1ccc(COC(Cn2ccnc2)c2ccc(Cl)cc2Cl)cc1 | 19 isolates | MIC50 | Candida tropicalis |  |  | 4 µg/mL
COc1cc(O)c2c(c1)OC(c1ccc(O)cc1)CC2=O | ATCC 7978 | MIC | Candida dubliniensis |  | broth dilution | 630 µg/mL
CCCC1=NOC(CCCCCCCCC(=O)OC)C1 |  | MFC | Candida dubliniensis |  | agar | 256 µg/mL
C[C@H]1[C@H](O)[C@@H](C)/C=C/C=C/C=C/C=C/C=C/C=C/C=C/[C@H](O[C@@H]2O[C@H](C)[C@@H](O)[C@H](N)[C@@H]2O)C[C@@H]2O[C@](O)(C[C@@H](O)C[C@@H](O)CC[C@H](O)[C@@H](O)C[C@@H](O)CC(=O)O[C@H]1C)C[C@H](O)[C@H]2C(=O)O | 17 isolates | MIC50 | Candida krusei |  |  | 2 µg/mL
Clc1ccc(CSC(Cn2ccnc2)c2ccc(Cl)cc2Cl)cc1 | 19 isolates | MIC50 | Candida tropicalis |  |  | 2 µg/mL
COC(=O)/C=C1/NN=C(c2ccccn2)N(c2ccccn2)C1=O | Clinical isolate | MIC50 | Candida spp. |  | agar diffusion | 32 µg/mL
C[C@@H]1[C@H](O)[C@@H](C)/C=C/C=C/CC/C=C/C=C/C=C/C=C/C(O[C@H]2O[C@H](C)[C@@H](O)[C@H](N)[C@@H]2O)CC2O[C@](O)(CC(O)C(O)CCC(O)CC(O)CC(O)CC(=O)O[C@H]1C)CC(O)C2C(=O)O | CBS 12 | MIC | Candida rugosa |  | broth dilution | 1.9 µg/mL
C/C=C/Cc1ccc(OC)cc1 |  | MIC | Candida dubliniensis |  | broth dilution | 1150 µg/mL
Clc1ccc(COC(Cn2ccnc2)c2ccc(Cl)cc2Cl)c(Cl)c1 | LM 120 | MFC100 | Candida krusei |  | broth dilution | 32 µg/mL
CCCCCCCCOc1ccc(-c2ccc(C(=O)NC3CC(NCCN)CNC(=O)[C@@H]4[C@@H](O)[C@@H](C)CN4C(=O)[C@@H](CO)NC(=O)[C@H]([C@H](O)Cc4ccccc4)NC(=O)[C@@H]4C[C@@H](O)CN4C(=O)[C@H]([C@@H](C)O)NC3=O)cc2)cc1 | NEM_7104301 | MIC | Candida lusitaniae |  | resazurin | 1 µg/mL
CCCCCCCCCCCCCCCCCCCO | ATCC 750 | MIC | Candida tropicalis |  | broth dilution | 100 µg/mL
Clc1ccc(COC(Cn2ccnc2)c2ccc(Cl)cc2Cl)c(Cl)c1 | 19 isolates | MIC90 | Candida tropicalis |  |  | 8 µg/mL
COc1ccc2c(Cc3ccc(C(C)C)cc3)c3[n+](cc2c1OC)CCc1cc2c(cc1-3)OCO2 | ATCC 42720 | MIC | Candida lusitaniae |  | broth dilution | 8 µg/mL
O=C(OC1Cc2c(O)cc(O)cc2OC1c1cc(O)c(O)c(O)c1)c1cc(O)c(O)c(O)c1 | Clinical isolate 3 | MIC50 | Candida tropicalis |  | broth dilution | >128 µg/mL
CO[C@H]1C[C@H](O[C@H]2CC[C@@]3(C)C(=CC[C@@H]4[C@@H]3CC[C@]35C(=O)O[C@H](C)[C@H]3C(=O)C[C@]45O)C2)O[C@H](C)[C@H]1O[C@H]1C[C@H](OC)[C@H](O[C@@H]2C[C@@H](OC)[C@@H](O)[C@H](C)O2)[C@@H](C)O1 |  | EC50 | Candida guilliermondii |  | broth dilution / turbidity | 50 µg/mL
COc1cc(C=O)ccc1O |  | MIC | Candida dubliniensis |  | broth dilution | 130 µg/mL
CO[C@H]1C[C@H](O[C@H]2CC[C@@]3(C)C(=CC[C@H]4C5=CC(=O)[C@@H]6[C@@H](C)OC(=O)[C@]56CC[C@@H]43)C2)O[C@H](C)[C@H]1O[C@H]1C[C@H](OC)[C@H](O[C@H]2C[C@H](OC)[C@H](O[C@@H]3C[C@@H](OC)[C@@H](O)[C@H](C)O3)[C@@H](C)O2)[C@@H](C)O1 |  | EC50 | Candida guilliermondii |  | broth dilution / turbidity | 100 µg/mL
O=Cc1cccc(O)c1O | PYCC 2705 | EC50 | Candida lusitaniae |  | broth dilution / turbidity | 0.16 µM
c1ccc([Se][Se]c2ccccc2)cc1 | CBS 7987 | MIC | Candida dubliniensis |  | broth dilution | 8 µg/mL
COc1cc(C)ccc1O |  | MIC | Candida dubliniensis |  | broth dilution | 670 µg/mL
CO[C@H]1C[C@H](O[C@H]2CC[C@@]3(C)C(=CC[C@H]4C5=CC(=O)[C@@H]6[C@@H](C)OC(=O)[C@]56CC[C@@H]43)C2)O[C@H](C)[C@H]1O[C@H]1C[C@H](OC)[C@H](O[C@@H]2C[C@@H](OC)[C@@H](O[C@@H]3O[C@H](CO)[C@@H](O)[C@H](O)[C@H]3O)[C@H](C)O2)[C@@H](C)O1 |  | EC50 | Candida guilliermondii |  | broth dilution / turbidity | 100 µg/mL
c1ccc(CC2CCCc3cnccc32)cc1 | 2402E | MIC | Candida albicans |  |  | 31 µg/mL
C[C@@H]1[C@H](O)[C@@H](C)/C=C/C=C/CC/C=C/C=C/C=C/C=C/C(O[C@H]2O[C@H](C)[C@@H](O)[C@H](N)[C@@H]2O)CC2O[C@](O)(CC(O)C(O)CCC(O)CC(O)CC(O)CC(=O)O[C@H]1C)CC(O)C2C(=O)O | MTCC 183 | zone | Candida albicans | 20 µg/disc | agar diffusion / agar | 0 mm
COc1ccc2c(Cc3ccc(C(C)C)cc3)c3[n+](cc2c1OCc1cc(F)c(F)c(F)c1)CCc1cc2c(cc1-3)OCO2 | ATCC 42720 | MIC | Candida lusitaniae |  | broth dilution | 8 µg/mL
CCOC(=O)C1C(c2ccc(Cl)cc2)CC(c2ccccc2)=CC12NCCN2 |  | MIC | Candida neoformans |  |  | 200 µg/mL
CC(=O)N1CCN(c2ccc(OC[C@H]3CO[C@](Cn4ccnc4)(c4ccc(Cl)cc4Cl)O3)cc2)CC1 | Isogenic isolate 17 CDR | MIC | Candida albicans |  |  | 0.25 µg/mL
C[C@H]1[C@H](O)[C@@H](C)/C=C/C=C/C=C/C=C/C=C/C=C/C=C/[C@H](O[C@@H]2O[C@H](C)[C@@H](O)[C@H](N)[C@@H]2O)C[C@@H]2O[C@](O)(C[C@@H](O)C[C@@H](O)CC[C@H](O)[C@@H](O)C[C@@H](O)CC(=O)O[C@H]1C)C[C@H](O)[C@H]2C(=O)O | E28 | inhibition | Candida krusei | 1 µM | broth dilution | 80%
O=C(O)/C=C/c1ccccc1 | ATCC 22019 | EC50 | Candida parapsilosis |  | broth dilution / turbidity | 0.18 µM
C/C(=N\NC(=O)c1ccc([N+](=O)[O-])cc1)c1ccc(-n2ccnc2)cc1 | ATCC 2001 | MIC50 | Candida glabrata |  | broth dilution | <0.68 µM
CCO[C@@H]1C[C@@H]([C@H](C)[C@H]2CC[C@]3(C)C4=C(CC[C@@]23C)[C@]2(C)CC[C@H](O)C(C)(C)[C@H]2CC4)CC[C@@H]1C | MTCC 183 | zone | Candida albicans | 5 µg/disc | agar diffusion / agar | 23 mm
COC(=O)[C@H]1[C@@H]2C[C@@H](O[C@@H]3O[C@H](C)[C@@H](O)[C@H](N)[C@@H]3O)/C=C/C=C/C=C/C=C/C=C/C=C/C=C/[C@H](C)[C@@H](O)[C@H](C)[C@H](C)OC(=O)C[C@H](O)C[C@H](O)[C@@H](O)CC[C@H](O)C[C@H](O)C[C@](O)(C[C@@H]1O)O2 | Clinical isolates | MIC | Candida spp. |  |  | 1 µg/mL
O=C(O)c1ccccc1 | PYCC 2705 | EC50 | Candida lusitaniae |  |  | 0.06 µM
COc1ccc2c(Cc3ccc(C(C)C)cc3)c3n(cc-2c1=O)CCc1cc2c(cc1-3)OCO2 | ATCC 42720 | MIC | Candida lusitaniae |  | broth dilution | 8 µg/mL
CCC(C)n1ncn(-c2ccc(N3CCN(c4ccc(OC[C@H]5CO[C@](Cn6cncn6)(c6ccc(Cl)cc6Cl)O5)cc4)CC3)cc2)c1=O | 77 isolates | MIC90 | Candida glabrata |  |  | 4 µg/mL
COc1cc2occ(-c3ccc(O)cc3)c(=O)c2c(OC)c1CC=C(C)C | Clinical isolate | MIC | Candida guilliermondii |  | broth dilution | 12.5 µg/mL
C[C@@H]1O[C@@H](Oc2c(-c3ccc(O)c(O)c3)oc3cc(O)cc(O)c3c2=O)[C@H](O)[C@H](O)[C@H]1O | ATCC 750 | MLC | Candida tropicalis |  | broth dilution | >200 µg/mL
C[C@@H]1[C@H](O)[C@@H](C)/C=C/C=C/CC/C=C/C=C/C=C/C=C/C(O[C@H]2O[C@H](C)[C@@H](O)[C@H](N)[C@@H]2O)CC2O[C@](O)(CC(O)C(O)CCC(O)CC(O)CC(O)CC(=O)O[C@H]1C)CC(O)C2C(=O)O |  | zone | Candida dubliniensis | 100 µg/mL | agar diffusion / agar | 0 mm
CN1CCC2=C(CCCC2CCc2cccc(Cl)c2)C1 | 2402E | MIC | Candida albicans |  |  | 16 µg/mL
CCCCCCCCC[C@@H](O)[C@H](C)N | MTCC 1744 | MIC | Candida parapsilosis |  |  | 4.9 µM
CC(=O)N1CCN(c2ccc(OC[C@H]3CO[C@](Cn4ccnc4)(c4ccc(Cl)cc4Cl)O3)cc2)CC1 | 52 clinical isolates | MIC90 | Candida parapsilosis |  | broth dilution | 0.062 µg/mL
Cc1ccc(Oc2c(C3C(C#N)=C(N)OC4=C3C(=O)CCC4)c(C)nn2-c2ccc(C)cc2)cc1 | MTCC 227 | MIC | Candida spp. |  |  | 500 µg/mL
Clc1ccc(C(Cn2ccnc2)OCc2c(Cl)cccc2Cl)c(Cl)c1 | 19 isolates | MIC90 | Candida tropicalis |  |  | 2 µg/mL
C(/C=C/c1ccccc1)=NCCNCCN=C/C=C/c1ccccc1.N#C[S][Hg][S]C#N |  | zone | Candida albicans | 10000 µg/mL | agar diffusion | 24 mm
CN(C/C=C/C#CC(C)(C)C)Cc1cccc2ccccc12 | 24 clinical isolates | MIC50 | Candida guilliermondii |  | broth dilution | 2 µg/mL
CN1CCC2=C(CCCC2CCc2ccc(F)cc2)C1 | 2005E | MIC | Candida albicans |  |  | 8 µg/mL
C[C@H]1[C@H](O)[C@@H](C)/C=C/C=C/C=C/C=C/C=C/C=C/C=C/[C@H](O[C@@H]2O[C@H](C)[C@@H](O)[C@H](N)[C@@H]2O)C[C@@H]2O[C@](O)(C[C@@H](O)C[C@@H](O)CC[C@H](O)[C@@H](O)C[C@@H](O)CC(=O)O[C@H]1C)C[C@H](O)[C@H]2C(=O)O |  | zone | Candida tropicalis | 10 µg/mL | agar diffusion / agar | 22 mm
C[C@H](Cc1ccc(O)c(O)c1)[C@@H](C)Cc1ccc(O)c(O)c1 | CCC 124-2000 | MIC50 | Candida parapsilosis |  | broth dilution | 250 µg/mL
CC(C)=CCOc1ccc(C2CC(=O)c3c(O)cc(O)cc3O2)cc1O | Candida inconspicua | zone | Candida spp. | 100 µg/mL | agar diffusion / agar | 0 mm
CC1(C)C=C2C3CCC4[C@@]5(C)CCC(=O)C(C)(C)C5CC[C@@]4(C)[C@]3(C)CC[C@@]2(C(=O)O)CC1 | ATCC 750 | MLC | Candida tropicalis |  | broth dilution | >200 µg/mL
CN1CCC2=C(CCCC2CCc2ccccc2)C1 | 2381E | MIC | Candida albicans |  |  | 31 µg/mL
C(/C=C/c1ccccc1)=NCCNCCN=C/C=C/c1ccccc1.[Br][Hg][Br] |  | zone | Candida albicans | 10000 µg/mL | agar diffusion | 23 mm
Cc1ccccc1O |  | MIC | Candida dubliniensis |  | broth dilution | 400 µg/mL
CNC(=S)N/N=C/c1ccc(-n2ccnc2)cc1 | ATCC 2001 | MIC50 | Candida glabrata |  | broth dilution | >964 µM
C[C@@H]1[C@H](O)[C@@H](C)/C=C/C=C/CC/C=C/C=C/C=C/C=C/C(O[C@H]2O[C@H](C)[C@@H](O)[C@H](N)[C@@H]2O)CC2O[C@](O)(CC(O)C(O)CCC(O)CC(O)CC(O)CC(=O)O[C@H]1C)CC(O)C2C(=O)O | Clinical isolates | MIC | Candida guilliermondii |  | broth dilution | 2 µg/mL
CCOC(=O)C1C(c2ccc(C)cc2)CC(c2ccc(Cl)cc2)=CC12NCCN2 | Strains 6 and 6 | MIC | Candida spp. |  |  | 25 µg/mL
C=CCc1ccc(O)c(-c2ccc(O)c(CC=C)c2)c1 | YL 317 | MIC | Candida albicans |  | broth dilution | 64 µg/mL